Activity change, negative = less growth data for 51 compounds are collected here from PubChem BioAssay AID651644 (National Center for Advancing Translational Sciences (NCATS), 2012).

Only a part is listed here, and it is no random draw. Active and inactive are the calls of the source. The call rests on the fitted dose curve; in most records, active means well fitted falling curve with a large enough effect; inconclusive means small, poorly fitted or top-dose-only effect; inactive means no such curve, though single readings can be large or run the other way.
On the % scale 0 is the no-effect control and ±100 the full control effect.

This assay is described as follows: qHTS Assay for Inhibitors of the HIV-1 protein Vpr. Further: nearly all actives have a fitted effect of over 50% in size. The settings on record: S. pombe RE007 Vpr strain, BacTiter-Glo ATP luminescence, 24 h; at 92.2 µM (top of the series) unless noted.
Take `O=[N+]([O-])c1ccc2c(c1)C=Nc1ccccc1O2`: the activity change, negative = less growth was inactive: -7.31%.

Consider `Cc1ccc2nc3c(c(C)c2c1)CC(C(Cl)Cl)S3` (stereo unspecified), for which the activity change, negative = less growth is inactive: -1%.

`Cc1cccc(C)c1OP(C)(N)=O` (stereo unspecified): the activity change, negative = less growth was inactive: 13.3%.

Take `Cc1ccc(OP(=O)(Nc2ccc([N+](=O)[O-])cn2)Oc2ccc(C)cc2)cc1`: the activity change, negative = less growth is inactive: -8.53%.

With `[N-]=[N+]=NC1CCCCC1NC(=O)c1cc([N+](=O)[O-])cc([N+](=O)[O-])c1` (stereo unspecified), the activity change, negative = less growth is inactive: -14.2%.

Regarding `CC(C)(C)c1ccc(OP(C)(=O)Nc2ccc(SC(F)(F)F)cc2)cc1` (stereo unspecified), the activity change, negative = less growth is inactive: 0.523%.

Turning to `O=[N+]([O-])c1ccc(-c2cc([N+](=O)[O-])c(O)c([N+](=O)[O-])c2)cc1`, the activity change, negative = less growth is inactive: 1.6%.

On to `COc1cc(C(=O)NCC2(N3CCOCC3)CCCCC2)ccc1OCC(C)C`, for which the activity change, negative = less growth was inactive: -1.66%.

For the compound `C[As](=O)(O)c1cccc(C(=O)O)c1`, the activity change, negative = less growth is inactive: -2.25%.

Regarding `O=[As](O)(c1ccc(O)cc1)c1ccccc1O`, the activity change, negative = less growth is inactive: -7.42%.

Turning to `O=[N+]([O-])c1cc([N+](=O)[O-])c(Nc2cccnc2)c([N+](=O)[O-])c1`, the activity change, negative = less growth is inactive: -24.2%.

Regarding `COc1ccccc1-c1ccccn1.O=[N+]([O-])c1cc([N+](=O)[O-])c(O)c([N+](=O)[O-])c1`, the activity change, negative = less growth is inactive: -4.62%.

Turning to `COc1ccc(N/C(=N/P(=O)(N2CCOCC2)N2CCOCC2)N2CCOCC2)cc1`, the activity change, negative = less growth was inactive: -20.7%.

Consider `O=[N+]([O-])c1cc(Oc2ccc([N+](=O)[O-])cc2C(F)(F)F)cc([N+](=O)[O-])c1`, for which the activity change, negative = less growth was inactive: 2.81%.

With `COc1cc(I)ccc1[As](=O)(O)O`, the activity change, negative = less growth is inactive: -6.35%.

Consider `COc1ccc2nc(NP(=O)(c3ccccc3)c3ccccc3)sc2c1`, for which the activity change, negative = less growth is inactive: 55.8%.

In the case of `O=P1(N(CCCl)CCCl)OCCCN1CCCl` (stereo unspecified), the activity change, negative = less growth was inactive: 4.03%.

For the compound `O=P1(N(CCCl)CCCl)Nc2ccccc2N1`, the activity change, negative = less growth was inactive: 14.9%.

For the compound `Cc1cc(=O)[nH]c(N[N+](=O)[O-])n1`, the activity change, negative = less growth was inactive: 6.3%.

Consider `CCN(CC)CCCOC(=O)C(O)(c1ccccc1)c1ccccc1`, for which the activity change, negative = less growth was inactive: 15.3%.

On to `O=C(OC1CN2CCC1CC2)C12CC3CC(CC(C3)C1)C2` (stereo unspecified), for which the activity change, negative = less growth was inactive: 1.29%.

For the compound `Cc1c2c(nc3ccccc13)SC(C(Cl)Cl)C2` (stereo unspecified), the activity change, negative = less growth was inactive: -21.8%.

As for `CP(=O)(Nc1ccccn1)Oc1ccc(Cl)cc1` (stereo unspecified), the activity change, negative = less growth is inactive: -0.589%.

Turning to `CCC(C)N(CC(C)C)C(=S)SC(NC(C)=O)C(Cl)(Cl)Cl` (stereo unspecified), the activity change, negative = less growth was inactive: -8.42%.

As to `O=[N+]([O-])c1cc([N+](=O)[O-])c(O)c([N+](=O)[O-])c1.c1ccc(Oc2ccncc2)cc1`, the activity change, negative = less growth was inactive: -19.1%.

With `CCOC(=O)c1ccc(NC(=O)C(C)(CCl)SC)cc1` (stereo unspecified), the activity change, negative = less growth was inactive: 10.5%.

`CCOC(=O)c1ccc(NP(C)(=O)Oc2ccc(OC)cc2)cc1` (stereo unspecified): the activity change, negative = less growth was inactive: 14.3%.

As to `CSc1ccc(Nc2c([N+](=O)[O-])cc([N+](=O)[O-])cc2[N+](=O)[O-])cc1`, the activity change, negative = less growth was inactive: -27.4%.

As to `CCOP(C)(=S)SCC(=O)NC(C)C(=O)O` (stereo unspecified), the activity change, negative = less growth is inactive: -12.8%.

Consider `O=C(OC1CN2CCC1CC2)c1cccc([N+](=O)[O-])c1` (stereo unspecified), for which the activity change, negative = less growth was inactive: -1.96%.

With `O=C(Nc1ccncc1[N+](=O)[O-])c1ccc([N+](=O)[O-])cc1[N+](=O)[O-]`, the activity change, negative = less growth is inactive: -8.4%.

With `Cc1cc(C)cc(OP(C)(=O)Nc2ccc(SC(F)(F)F)cc2)c1` (stereo unspecified), the activity change, negative = less growth was inactive: -7.48%.

For `CP(=O)(NC(=O)Nc1ccccc1)Oc1ccccc1` (stereo unspecified), the activity change, negative = less growth was inactive: 8.52%.

Consider `O=C(COc1ccccc1)OC1CN2CCC1CC2` (stereo unspecified), for which the activity change, negative = less growth was inactive: -0.331%.

Regarding `CCc1ccc(OP(C)(=O)N2CCN(c3ccc([N+](=O)[O-])cc3)CC2)cc1` (stereo unspecified), the activity change, negative = less growth was inactive: -6.53%.

For `COC(=O)C1(C)COP(=O)(N2CCCC2)OC1` (stereo unspecified), the activity change, negative = less growth was inactive: 7.35% [at 18.4 µM].

In the case of `CP(=O)(Oc1ccccc1)OC(c1ccccc1)C(F)(F)F` (stereo unspecified), the activity change, negative = less growth is inactive: 20.5%.

On to `COP1(=S)c2c(C)nn(CCC#N)c2N=C(c2ccc(F)cc2)N1C` (stereo unspecified), for which the activity change, negative = less growth is inactive: 6.02%.

Consider `Cc1cccc(C)c1OP(C)(=O)Nc1ccc(SC(F)(F)F)cc1` (stereo unspecified), for which the activity change, negative = less growth was inactive: -2.17%.

Take `CP(=O)(Nc1ccccc1Br)Oc1ccccc1` (stereo unspecified): the activity change, negative = less growth was inactive: 3.52%.

`COc1ccccc1OP(C)(=O)Nc1ccccc1` (stereo unspecified): the activity change, negative = less growth is inactive: 1.55%.

Regarding `Cc1cc(SC(NC=O)C(Cl)(Cl)Cl)ncn1` (stereo unspecified), the activity change, negative = less growth is inactive: 7.29%.

For the compound `O=P(Nc1ccccn1)(c1cccc2ccccc12)c1cccc2ccccc12`, the activity change, negative = less growth was inactive: 2.44%.

Consider `CCOC(=O)Nc1cccc([As](=O)(O)O)c1`, for which the activity change, negative = less growth is inactive: -9.95%.

For the compound `CP(=S)(Nn1cnnc1)Oc1ccccc1` (stereo unspecified), the activity change, negative = less growth is inactive: 12.6%.

As for `Cc1cc(SC(NC(=O)c2ccccc2)C(Cl)(Cl)Cl)nc(C(C)C)n1` (stereo unspecified), the activity change, negative = less growth is inactive: 17.7%.

On to `CCCCOc1ccc(C(=O)NCC2(N3CCCCC3)CCCCC2)cc1OC`, for which the activity change, negative = less growth is inactive: -18.7%.

Consider `COP(=O)(OC)N1CC1c1ccccc1` (stereo unspecified), for which the activity change, negative = less growth was inactive: -20%.

As to `CC1CCNP(=O)(N(CCCl)CCCl)O1` (stereo unspecified), the activity change, negative = less growth is inactive: 0.128%.

For `O=C(O)C(=O)c1ccc(N(CCCl)CCCl)cc1.c1ccc(Nc2ccccc2)cc1`, the activity change, negative = less growth is inactive: -27.4%.

With `CCOC(=O)Nc1ccc([As](=O)(O)O)c(O)c1`, the activity change, negative = less growth is inactive: 6.28%.
